PubChem BioAssay AID504761, Drosophila RNAi Screening Center, 2011

Screen: 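Genome-wide fly cell screen for genes dengue virus requires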 (primary screen)
Cell system: D.Mel-2 cells from Drosophila
Reagent: long dsRNA against Drosophila genes
Challenge: infection with dengue virus type 2; dose and infection time not stated
Measurement: 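Cells stained for dengue envelope protein and imaged; percent of infected cells per well on duplicate plates, ranked by infection, with stained nuclei counted for cell number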
Scale: infection score: higher = more virus-infected cells; cell count: higher = more cells in the well
Rule for the call: 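Very low infection ranking in both replicate wells (chance probability at most 0.065), then a retest showing infection dropped 1.5-fold or more at p below 0.05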
Calls: active = confirmed: knock-down lowers infection; inactive = not picked or not confirmed
In all, the deposit lists about 22,000 reagents; shown is an unselected part of those with a known target gene and a result. Over the whole deposit, 116 (0.52%) were called active. 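Calls depend on retest data that are not deposited; infection was ranked per plate without normalising between plates; the unit of the infection score is not given.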 The raw values are shown without normalisation. Unmarked entries are inactive. Reagents against one gene are numbered here. Names joined by + are all predicted targets of the reagent. No sequences are given here. The record does not give: the amount of reagent, the time to read-out.

predicted target | reagent no. | infection score, replicate 1 | infection score, replicate 2 | cell count, replicate 1 | cell count, replicate 2
CG7768 | 1 | 10.1 | 7.52 | 7033 | 6505
Tsp42El | 1 | 23.4 | 25.6 | 6221 | 6445
rl | 1 | 2.23 | 1.29 | 6135 | 6259
rl | 2 | 1.22 | 0.23 | 5393 | 5315
rl | 3 | 11.1 | 2.06 | 5449 | 6807
Atx2 | 1 | 3.26 | 7.32 | 4330 | 4589
CG42553 | 1 | 1.01 | 4.54 | 6127 | 5725
drm | 1 | 3.3 | 7.22 | 6118 | 6328
msi | 1 | 8.34 | – | 3776 | 377
CG9162 (retired record) | 1 | 5.83 | 0.53 | 5674 | 6549
CG6345 | 1 | 16.8 | 19.9 | 2676 | 4605
upd2 | 1 | 1.92 | 2.56 | 6617 | 6960
upd2 | 2 | 6.72 | 2.39 | 5747 | 5783
UGP | 1 | 29.8 | 15.9 | 5308 | 5755
scb | 1 | 0.64 | 3.74 | 6241 | 6077
scb | 2 | 15.8 | 15.6 | 6130 | 6380
CG14102 | 1 | 3.1 | 3.51 | 6893 | 6525
ValRS | 1 | 9.89 | 10.1 | 5579 | 6095
CG12259 | 1 | 0.78 | 2.06 | 6267 | 6016
CG12259 | 2 | 2.91 | 16.7 | 6591 | 5633
CG34327 | 1 | 4.36 | 1.35 | 6718 | 6883
CG34327 | 2 | 3.94 | 15 | 6277 | 6942
CG34327 | 3 | 13.2 | 1.17 | 6140 | 684
wry | 1 | 13.1 | 22.4 | 6668 | 6850
wry | 2 | 13.8 | 4.26 | 6479 | 6670
wry | 3 | 3.33 | 1.22 | 6516 | 6826
TwdlX | 1 | 1.28 | 1.01 | 6615 | 6506
TwdlX | 2 | 13.5 | 7.54 | 2501 | 4630
kek5 | 1 | 1.36 | 1.15 | 4772 | 5988
kek5 | 2 | 1.49 | 7.54 | 5825 | 5874
Cog8 | 1 | 13.1 | 11.8 | 6444 | 5627
CG13901 | 1 | 7.48 | 13.4 | 6977 | 5611
CG14538 (retired record) | 1 | 3.94 | 4.45 | 6147 | 6625
CG14538 (retired record) | 2 | 32.4 | 4.25 | 5444 | 895
Gyf | 1 | 12 | 2.66 | 5698 | 6123
Gyf | 2 | 4.79 | – | 1940 | 431
Akr1B | 1 | 9.04 | 13 | 5906 | 6010
Ppcs | 1 | 2.26 | 9.16 | 6144 | 6637

Next part; the last 9 above are carried over.
predicted target | reagent no. | infection score, replicate 1 | infection score, replicate 2 | cell count, replicate 1 | cell count, replicate 2
kek5 | 2 | 1.49 | 7.54 | 5825 | 5874
Cog8 | 1 | 13.1 | 11.8 | 6444 | 5627
CG13901 | 1 | 7.48 | 13.4 | 6977 | 5611
CG14538 (retired record) | 1 | 3.94 | 4.45 | 6147 | 6625
CG14538 (retired record) | 2 | 32.4 | 4.25 | 5444 | 895
Gyf | 1 | 12 | 2.66 | 5698 | 6123
Gyf | 2 | 4.79 | – | 1940 | 431
Akr1B | 1 | 9.04 | 13 | 5906 | 6010
Ppcs | 1 | 2.26 | 9.16 | 6144 | 6637
Lmx1a | 1 | 5.41 | 10.8 | 6689 | 6727
Lmx1a | 2 | 9.78 | 9.39 | 5317 | 5966
GC1 | 1 | 9.74 | 24.5 | 6929 | 3688
GC1 | 2 | 3.92 | 1.49 | 6150 | 5978
CG6683 | 1 | 5.93 | 7.88 | 944 | 1460
CG6683 | 2 | 4.24 | 4.38 | 6160 | 6055
Obp19b | 1 | 6.11 | 4.44 | 4939 | 6329
Obp19b | 2 | 2.38 | – | 1091 | 439
Trs20 | 1 | 0.6 | 2.37 | 5522 | 5104
Polr1B | 1 | 2.95 | 4.11 | 5588 | 6079
Rpt4R | 1 | 5.19 | 2.67 | 6122 | 6506
Rpt4R | 2 | 0.9 | 0.68 | 5971 | 6571
dec | 1 | 5.72 | 4.89 | 5681 | 5769
dec | 2 | 3.66 | 3.77 | 6614 | 6682
dec | 3 | 22.6 | 30.3 | 5391 | 5108
CG3270 | 1 | 9.7 | 14.2 | 6183 | 6259
sns | 1 | 20.2 | 20.3 | 4865 | 3952
sns | 2 | 17 | 6.12 | 6018 | 6519
sns | 3 | 12.6 | 13.9 | 3455 | 5528
sns | 4 | 6.29 | 9.8 | 6156 | 3653
CG14480 | 1 | 16.3 | 22 | 6156 | 6168
ana3 | 1 | 26 | 17.6 | 5295 | 6023
ana3 | 2 | 15 | 1.89 | 5634 | 6440
CG11170 | 1 | 11 | 16.9 | 6371 | 5952
CG11170 | 2 | – | 12.5 | 373 | 6398
CG33095 | 1 | 10.4 | 7.41 | 2467 | 6773
CG12725 | 1 | 6.22 | 6.8 | 1174 | 1881
CG12725 | 2 | 7.31 | 7.24 | 6296 | 6585
Etfb | 1 | 1.23 | 2.48 | 6339 | 6663
CG17292 | 1 | 1.93 | 2.67 | 6535 | 5959
CG17292 | 2 | 6.35 | 7.88 | 6838 | 6889
Cp7Fb | 1 | 2.55 | 1.13 | 6386 | 6633
CG14411 | 1 | 1.59 | 3.72 | 6658 | 6697
CG14411 | 2 | 6.68 | 15.3 | 1363 | 4315
CG32213 + CG12519 + 825-Oak + 1 more | 1 | 1.52 | 0.39 | 6363 | 6683
CSN8 | 1 | 2.59 | 3.69 | 6102 | 5525
